This note sets out measurements from US6599747B1, “Soil test” (University of Lancaster, priority 1998, dated 2003).

The series has as its system catabolocally active microbial culture. Briefly: Respirometry: mineralisation of soil-associated 14C-9-phenanthrene (biodegradability). Conditions: for Concentration Mineralized by microbes: mineralisation to plateau (240 h).

Turning to `c1ccc2c(c1)ccc1ccccc12` [phenanthrene], the “correlation of HPCD-extracted amount with amount biodegraded: slope” value (25 and 50 mg kg^−1 spikes, ageing 1, 42, 84 d) stood at 1.041. The “Concentration Mineralized by microbes” value worked out at 18.2 mg/kg^−1 (soil spiked 25 mg/kg^−1, aged 1 d); 14.9 mg/kg^−1 (soil spiked 25 mg/kg^−1, aged 42 d); 14.7 mg/kg^−1 (soil spiked 25 mg/kg^−1, aged 84 d); 32.0 mg/kg^−1 (soil spiked 50 mg/kg^−1, aged 1 d); 17.8 mg/kg^−1 (soil spiked 50 mg/kg^−1, aged 42 d); 1.1 mg/kg^−1 (soil spiked 50 mg/kg^−1, aged 84 d).
